Here are results for 2 compounds from US20250345307A1, “SYNTHETIC […] BROAD-SPECTRUM ANTIVIRAL ACTIVITIES AND USES THEREOF” (priority 2020, published 2025).

Each structure is given as a SMILES string. The source's definition of the ratio is not given here.

The subject of this data set is ZIKV. In words: Antiviral activity against ZIKV (strain 976 Uganda) in A549 cells, intracellular ZIKV genomes by qRT-PCR. The data set is classed as cell-based, Zika virus. Conditions: Selectivity Index.

In turn, `CONC(=O)[C@H]1[C@@H](O)[C@@]2(O)c3c(OC)cc(OC)cc3O[C@@]2(c2ccc(OC)cc2)[C@@H]1c1ccccc1` [CR-31-B (−)] yielded an SI of 17.1.

Take `COC(=O)[C@H]1[C@@H](O)[C@@]2(O)c3c(OC)cc(O[C@@H]4O[C@@H]([C@H](O)CO)CO[C@H]4OC)cc3O[C@@]2(c2ccc(OC)cc2)[C@@H]1c1ccccc1` [Silvestrol, methyl(1R,2R,3S,3aR,8bS)-6-[[(2S,3R,6R)-6-[(1R)-1,2-dihydroxyethyl]-3-methoxy-1,4-dioxan-2-yl]oxy]-1,8b-dihydroxy-8-methoxy-3a-(4-methoxyphenyl)-3-phenyl-2,3-dihydro-1H-cyclopenta[b][1]benzofuran-2-carboxylate, reference compound]: the SI was determined as 8.8.
